Compound potency records, mixed from different reports. Data source: NIAID ChemDB in PubChem.

Shared fields: target-level tests; protein: CCR5

Conditions beyond the fields shown may differ between rows.

| compound | mutations | method | setting | measure | result |
|---|---|---|---|---|---|
| C/C=C(\C)[C@@H]1C=C[C@@H]2C[C@H](C)C[C@H](C)[C@H]2[C@@H]1/C(O)=C1/C(=O)N[C@H](C[C@@](C)(O)C(=O)O)C1=O | - | radiometric | - | IC50 | 0.079 µM |
| CN(C[C@@H](CCN1CCC(c2ccccc2)CC1)c1cccc(Cl)c1)S(=O)(=O)c1ccccc1 | - | radioligand binding / binding | - | IC50 | 0.038 µM |
| CCN(C(=O)Cc1ccc(S(C)(=O)=O)cc1)C1CCN(CC[C@@H](c2ccccc2)c2ccc(S(C)(=O)=O)cc2)CC1 | - | radiometric | - | IC50 | 0.00076 µM |
| CC(C)C(=O)N1C[C@H](CN2CCC(c3ccccc3)CC2)[C@@H](c2ccccc2)C1 | CCR5-E283A | radiometric | - | IC50 | >10 µM |
| CN(Cc1ccccc1)C(=O)NC1CCN(CCC(CN(C)S(=O)(=O)c2ccccc2)c2ccccc2)CC1 | - | radioligand binding / binding | - | IC50 | 0.5 µM |
| CCc1cc(CCc2ccccc2)n(C2CCN(C[C@H]3CN([C@@H](C(=O)O)C4CCCCC4)C[C@@H]3c3ccccc3)CC2)n1 | - | radiometric | - | IC50 | <2 µM |
| CCCCCCN(c1ccccn1)C1CCN(C[C@H]2CN(C(=O)C3CCCCC3)C[C@@H]2c2ccccc2)CC1 | - | radioligand binding / binding | - | IC50 | <1 µM |
| CN(C(=O)NCc1ccccc1)C1CCN(CCC(CN(C)S(=O)(=O)c2ccccc2)c2ccccc2)CC1 | - | radioligand binding / binding | - | IC50 | 0.02 µM |
| Cc1cc(-c2ccccc2)n(C2CCN(C[C@H]3CN([C@@H](C(=O)O)C4CCCCC4)C[C@@H]3c3ccccc3)CC2)n1 | - | radiometric | - | IC50 | <2 µM |
| CCN(C(=O)Cc1ccc(S(C)(=O)=O)cc1)C1CCN(CC[C@H](c2ccc(S(C)(=O)=O)cc2)c2cccc(C(C)C)c2)CC1 | - | radiometric | - | IC50 | 0.11 µM |
| CCCN(C(=O)CCc1ccccc1)C1CCN(CCC(CN(C)S(=O)(=O)c2ccccc2)c2ccccc2)CC1 | - | radioligand binding / binding | - | IC50 | 0.022 µM |
| CCN(C(=O)Cc1ccc(S(C)(=O)=O)cc1)C1CCN(CC[C@H](c2ccc(S(C)(=O)=O)cc2)c2c(F)cccc2F)CC1 | - | radiometric | - | IC50 | 0.56 µM |
| CCCN(C(=O)OCc1ccc([N+](=O)[O-])cc1)C1CCN(CC[C@H](CN(C)S(=O)(=O)c2ccccc2)c2ccccc2)CC1 | - | radioligand binding / binding | - | IC50 | 0.001 µM |
| CCN(C(=O)Cc1ccc(S(C)(=O)=O)cc1)C1CCN(CC[C@@H](c2ccc(OC)cc2)c2ccc(S(C)(=O)=O)cc2)CC1 | - | radiometric | - | IC50 | 0.132 µM |
| CCO/N=C(\c1ccc(Br)cc1)C1CCN(C2(C)CCN(C(=O)c3c(C)cc[n+]([O-])c3C)CC2)CC1 | - | radiometric | 8 h | Ki | 0.0032 µM |
| CN(CC(C)(CCN1CCC(N(CCO)C(=O)OCc2ccc([N+](=O)[O-])cc2)CC1)c1ccsc1)S(=O)(=O)c1ccccc1 | CCR5-W86A | radiometric | - | IC50 | 0.91 µM |
| CCCC(CCN1CCC(N(CC)C(=O)OCc2ccccc2)CC1)(CN(C)S(=O)(=O)c1ccccc1)c1ccccc1 | - | radioligand binding / binding | - | IC50 | 0.036 µM |
| CCN(C(=O)OCc1ccc([N+](=O)[O-])cc1)C1CCN(CC[C@](C)(CN(C)S(=O)(=O)c2ccccc2)c2ccccc2)CC1 | - | radioligand binding / binding | - | IC50 | 0.002 µM |
| C[C@H]1CN(C2CCN(C(=O)c3c(F)cccc3I)CC2)CCN1[C@@H](C)c1ccc(I)cc1 | - | radiometric | - | Ki | 1.3 µM |
| CCN(C(=O)Cc1ccc(S(C)(=O)=O)cc1)C1CCN(CC[C@H](c2ccc(S(C)(=O)=O)cc2)c2cc(F)c(F)c(F)c2)CC1 | - | radiometric | - | IC50 | 0.025 µM |
| CN(CC(c1ccccc1)N1CCC2(CC1)CS(=O)(=O)c1ccccc12)S(=O)(=O)c1ccccc1 | - | radioligand binding / binding | - | IC50 | 10 µM |
| CCOC(=O)c1cccc(C(CCN2CCC(c3ccccc3)CC2)CN(C)S(=O)(=O)c2ccccc2)c1 | - | radioligand binding / binding | - | IC50 | <10 µM |
| CN(CC(c1ccccc1)N1CCC(c2ccccc2)CC1)S(=O)(=O)c1ccccc1 | - | radioligand binding / binding | - | IC50 | >10 µM |
| O=C(C1CCCCC1)N1C[C@H](CN2CCC(c3ccccc3)CC2)[C@@H](c2ccccc2)C1 | CCR5-E283A | radiometric | - | IC50 | >10 µM |
| CN(CC(CCN1CCC2(CC1)CSc1ccccc12)C1CCCCC1)S(=O)(=O)c1ccccc1 | - | radioligand binding / binding | - | IC50 | <10 µM |
| CCN(C(=O)OCc1ccccc1)C1CCN(CC[C@@](C)(CN(C)S(=O)(=O)c2ccccc2)c2ccccc2)CC1 | - | radioligand binding / binding | - | IC50 | 0.165 µM |
| CN(CC(CCN1CCC2(CC1)CS(=O)(=O)c1ccccc12)C1CCCCC1)S(=O)(=O)c1ccccc1 | - | radioligand binding / binding | - | IC50 | <10 µM |
| CCCN(C(=O)OCc1ccc(-c2ccccc2)cc1)C1CCN(CCC(CN(C)S(=O)(=O)c2ccccc2)c2ccccc2)CC1 | - | radioligand binding / binding | - | IC50 | 0.016 µM |
| CN(C[C@@H](CCN1CCC2(CC1)CSc1ccccc12)c1ccc(F)cc1)S(=O)(=O)c1ccccc1 | - | radioligand binding / binding | - | IC50 | <10 µM |
| CCN(C(=O)OCc1ccccc1)C1CCN(CCC(C#N)(CN(C)S(=O)(=O)c2ccccc2)c2ccccc2)CC1 | - | radioligand binding / binding | - | IC50 | 0.012 µM |
| CN(C[C@@H](CCN1CCC2(CC1)CS(=O)c1ccccc12)c1cccc(Cl)c1)S(=O)(=O)c1ccccc1 | - | radioligand binding / binding | - | IC50 | 0.01 µM |
| Cc1cccc(C)c1C(=O)N1CCC(N2CCN([C@@H](C)c3ccc(Cc4ccc5c(c4)OCO5)cc3)[C@@H](C)C2)CC1 | - | binding / radiometric | - | IC50 | 0.031 µM |
| CCN(C(=O)Cc1ccc(S(C)(=O)=O)cc1)C1CCN(CC[C@H](c2ccc(S(C)(=O)=O)cc2)c2cc(F)cc(Cl)c2)CC1 | - | radiometric | - | IC50 | 0.0011 µM |
| CN(CC(C)(CCN1CCC(N(CC(O)CO)C(=O)OCc2ccccc2)CC1)c1ccccc1)S(=O)(=O)c1ccccc1 | - | radioligand binding / binding | - | IC50 | 0.009 µM |
| CCN(C(=O)OCc1ccccc1)C1CCN(CCC(CN(C)S(=O)(=O)c2ccccc2)(c2ccccc2)C(F)(F)F)CC1 | - | radioligand binding / binding | - | IC50 | >0.1 µM |
| CN(CC(CCN1CCC(c2ccccc2)CC1)C1CCCCC1)S(=O)(=O)c1ccccc1 | - | radioligand binding / binding | - | IC50 | <10 µM |
| COC(=O)N(C(C)C)C1CCN(CCC(CN(C)S(=O)(=O)c2ccccc2)c2ccccc2)CC1 | - | radioligand binding / binding | - | IC50 | 0.2 µM |
| CN(CC(CCCN1CCC2(CC1)CS(=O)c1ccccc12)c1cccc(Cl)c1)S(=O)(=O)c1ccccc1 | - | radioligand binding / binding | - | IC50 | 1.1 µM |

For reference, 2 entries again:

| compound | mutations | method | setting | measure | result |
|---|---|---|---|---|---|
| CCN(C(=O)OCc1ccc([N+](=O)[O-])cc1)C1CCN(CC[C@](C)(CN(C)S(=O)(=O)c2ccccc2)c2ccccc2)CC1 | - | radioligand binding / binding | - | IC50 | 0.002 µM |
| Cc1cccc(C)c1C(=O)N1CCC(N2CCN([C@@H](C)c3ccc(Cc4ccc5c(c4)OCO5)cc3)[C@@H](C)C2)CC1 | - | binding / radiometric | - | IC50 | 0.031 µM |

ICn is the concentration giving n% inhibition. An empty or dashed field is not shown.